Reference: publication PMC11943507 (Marine Drugs, 2025)

Assays:
hNav1.1 [1] = molecular target: T1, hNav1.1 (Homo sapiens, UniProt P35498); assay: Initial screening of agonists (single concentration, fluorescence enhancement); format: cell-based; conditions: 500 nM toxin; HHBS negative control, 30 μM veratridine positive control
hNav1.1 [2] = molecular target: T1, hNav1.1; conditions: hNav1.1-CHO cells, agonist mode, fluorescence

Substance: brevetoxin1
- agonist activity in initial screening (hNav1.1 [1]): significant agonist activity
- EC50 (hNav1.1 [2]): 8.47 nM
